# Screening data, single-dose tests

Source: ChEMBL document CHEMBL3988442, “University of Dundee, Small-Polar-MMV Screening Library” (2021).

A: 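Phenotypic screen: M. tuberculosis growth, cholesterol and DPPC medium, 4 days; the read-out is not stated. Compounds at 500 µM. Direction is inferred from retests: higher values go with more growth inhibition. About 18,000 compounds were tested under these conditions; 5% (about 900) showed 50% or more at least once.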
B: 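Whole-cell growth test on Mycobacterium tuberculosis, read after 3 days in glucose-containing 7H9 medium; the read-out is not stated. Concentration: 500 µM. Direction is inferred from retests: higher values go with more growth inhibition. Size under these conditions: about 18,000 compounds, about 1,400 of them at 50% or above in at least one test.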

The filed quantity is “Percent Effect” (%). How 0% and 100% were set is not recorded. Most values in the screen are low, and negative values occur. This is part of a subset picked to be rich in strong results.

{"compound": "FC(F)(F)Cn1cccn1", "B": -11.57}
{"compound": "CC(=O)c1cc(CN2CCOCC(CO)C2)n(C)c1", "stereo": "stereo not given", "A": 3.986}
{"compound": "CS(=O)(=O)CCN1CCC(C(N)=O)CC1", "B": -18.98}
{"compound": "CCN(CC1CCOC1)C(=O)c1cc(I)c[nH]1", "stereo": "stereo not given", "A": 59.56, "B": 71.11}
{"compound": "N#CCc1ccc(CO)cc1", "A": -9.457, "B": 8.551}
{"compound": "CCC(C(=O)N1CCC(O)CC1)c1ccccc1", "stereo": "stereo not given", "B": 17.06}
{"compound": "CN(Cc1nc(N)nc(N(C)C)n1)CC1CCCO1", "stereo": "stereo not given", "B": 16.94}
{"compound": "COc1ccnc(CN)c1F", "B": 13.43}
{"compound": "CC(C)(C)C(=O)N1CCc2cnccc21", "B": 4.482}
{"compound": "N#Cc1cc(F)ccc1N1CCNCC1", "B": 23.47}
{"compound": "C1CCC(COCCc2noc(C3CNC3)n2)C1", "A": 115.9, "B": 107.3}
{"compound": "CN1CCN(C(=O)C2CCCO2)c2ccccc2C1", "stereo": "stereo not given", "A": -2.177}
{"compound": "COc1cccc(NC(=O)N2CCN(C3CC3)CC2)c1", "A": 14.65}
{"compound": "O[C@H]1C[C@@H](c2cc(NCCc3ncc[nH]3)ncn2)C1", "B": 6.308}
{"compound": "CS(=O)(=O)NCCCN1CCCCC(N)C1", "stereo": "stereo not given", "B": -9.283}
{"compound": "CNc1ncccc1C(=O)NCCS(=O)(=O)N(C)C", "A": 2.063}
{"compound": "NCc1nc(-c2ccsc2)no1", "A": 12.67, "B": 1.023}
{"compound": "CN1CCOC(C(=O)Nc2ncccc2Br)C1", "stereo": "stereo not given", "B": -14.45}
{"compound": "CCc1ccccc1OCCN(C)CC(O)CO", "stereo": "stereo not given", "A": 13.03, "B": 40.59}
{"compound": "CCNC(=O)c1ccc(CNC(C)=O)cc1", "B": 0.6495}
{"compound": "O=C(c1ccccc1)N1CCC(NC2CCOCC2)C1", "stereo": "stereo not given", "B": -7.969}
{"compound": "Cc1nc(-c2c[nH]c(C(=O)N3CCCC3)c2)cs1", "A": 95.21, "B": 93.16}
{"compound": "CC(C)(C)OC(=O)Nc1cnsn1", "A": 2.036}
{"compound": "O=S1(=O)CCN(c2ncc(C(F)(F)F)cc2Cl)CC1", "A": -2.533, "B": 0.9178}
{"compound": "Cc1ccc(NC(=O)CS(C)(=O)=O)c(C)c1", "B": 6.851}
{"compound": "CC(C)(CNC(=O)CC1=CCCCC1)S(C)(=O)=O", "A": -0.25, "B": 20.39}
{"compound": "O=C(NCCNCc1ccc(F)cc1)c1ccco1", "B": -4.782}
{"compound": "CC(C)NS(=O)(=O)c1cc(CO)ccc1F", "A": 15.96, "B": 7.947}
{"compound": "CNC(=O)CSCc1ccc2ccccc2n1", "A": -35.51, "B": -9.011}
{"compound": "CN(CC(F)(F)F)C(=O)CN1CCC[C@H]1CO", "A": -19.65}
{"compound": "CCNC(=O)Cc1n[nH]c(=O)c2ccccc12", "A": -15.24}
{"compound": "CC(C)Oc1cc(CNC2CC2)ccn1", "B": 18.55}
{"compound": "O=C(CSc1ccncc1)N1CCCC2(CCOC2)C1", "stereo": "stereo not given", "A": 2.948}
{"compound": "O=C(CCN1CCC[C@H]1CO)N1CCc2ccccc21", "B": 4.499}
{"compound": "CCn1cc(OCCCS(=O)(=O)C(C)C)cn1", "B": -4.822}
{"compound": "Cn1c(SCCN2CCOCC2)nc2ccsc2c1=O", "B": 30.17}
{"compound": "COC(=O)CCC(=O)Nc1ccccc1F", "B": 2.085}
{"compound": "Cc1nn(CCC(=O)NCCN2CCOCC2)cc1Br", "B": -1.68}
{"compound": "OCCNCCNCc1cccc(Cl)c1Cl", "A": 52.78, "B": 57.71}
{"compound": "CN(CC(=O)N1CCSCC1)C(=O)OC(C)(C)C", "B": 4.426}
{"compound": "CC1Cc2ccccc2N1C(=O)c1ccccn1", "stereo": "stereo not given", "B": 54.56}
{"compound": "O=C(c1ccc(F)cc1)c1ncc[nH]1", "B": 25.59}
{"compound": "CN1CCN(C(=O)CCn2cncn2)CC1", "B": 5.2}
{"compound": "Cn1cc(Cl)c(C(=O)N2CCC3(CCO3)CC2)n1", "A": 2.087}
{"compound": "COCCCN(C)C(C(N)=O)c1ccccc1", "stereo": "stereo not given", "B": -2.24}
{"compound": "CCCC(N)C(=O)Nc1nccs1", "stereo": "stereo not given", "B": -19.53}

The last 4 entries again:

{"compound": "CN1CCN(C(=O)CCn2cncn2)CC1", "B": 5.2}
{"compound": "Cn1cc(Cl)c(C(=O)N2CCC3(CCO3)CC2)n1", "A": 2.087}
{"compound": "COCCCN(C)C(C(N)=O)c1ccccc1", "stereo": "stereo not given", "B": -2.24}
{"compound": "CCCC(N)C(=O)Nc1nccs1", "stereo": "stereo not given", "B": -19.53}